A mixed list of measured activities; the numbers were collected in NIAID ChemDB.

Common to all: tests in culture

An empty or dashed field is not shown. Neighbouring rows are from separate reports. Fold resistance: result on the changed form divided by that on wild type. Inhibition is in % at the dose shown (toxicity tests: loss of growth or viability).

structure	strain or isolate	species	cells	read by	read-out	tested at	changes	result
Cc1cc2[nH]cnc2cc1NC(=O)COc1ccc(Cl)cc1C(=O)c1cc(F)cc(C(F)(F)F)c1	HXB2	HIV-1	HeLa + HELA CD4+	β-galactosidase	fold resistance	-	RT-P236L	~1
O=C(NCCc1ccccc1)Nc1ccccn1	-	HIV-1	MT-4	cytopathic effect / XTT	inhibition	1 µg/mL	-	0%
CCOP(=O)(CCn1cc(-n2c[n+](C)c(=O)[nH]c2=O)nn1)OCC	ROD	HIV-2	CEM	-	inhibition	100 µM	-	0%
O=C(NCCc1ccccc1)Nc1nc2ccc(Cl)cc2s1	-	HIV-2	MT-4	RT activity	inhibition	10 µg/mL	-	98%
Cc1cc(S(N)(=O)=O)ccc1NC(=O)COc1ccc(Cl)cc1C(=O)c1cc(F)cc(F)c1	HXB2	HIV-1	HeLa + HELA CD4+	β-galactosidase	fold resistance	-	RT-E138K	~1
O=c1ccn(-c2cn(C(O)P(=O)(O)O)nn2)c(=O)[nH]1	ROD	HIV-2	CEM	-	inhibition	100 µM	-	0%
Cc1cc(C#N)cc(C(=O)c2cc(Cl)ccc2OCC(=O)Nc2ccc(S(N)(=O)=O)cc2C)c1	HXB2	HIV-1	HeLa + HELA CD4+	β-galactosidase	fold resistance	-	RT-G190A	~1
Nc1ncnc2c1ncn2Cc1cn(C(O)CP(=O)(O)O)nn1	ROD	HIV-2	CEM	-	inhibition	100 µM	-	0%
Cc1cc(S(N)(=O)=O)ccc1NC(=O)COc1ccc(Cl)cc1C(=O)c1cc(F)cc(C(F)(F)F)c1	HXB2	HIV-1	HeLa + HELA CD4+	β-galactosidase	fold resistance	-	RT-K103N V108I	~1
O=c1ccn(-c2cn(CCCP(=O)(O)O)nn2)c(=O)[nH]1	ROD	HIV-2	CEM	-	inhibition	100 µM	-	0%
CC(C)=CCOc1cc(NC(=S)c2ccsc2C)ccc1Cl	NL4-3	HIV-1	CEM + CEM-SS	p24	fold resistance	-	RT-Y181C	5
Cc1cc(OCCCS(N)(=O)=O)ccc1NC(=O)COc1ccc(Cl)cc1C(=O)c1cc(F)cc(C(F)(F)F)c1	HXB2	HIV-1	HeLa + HELA CD4+	β-galactosidase	fold resistance	-	RT-E138K	~1
CCCCN1C(=O)[C@@H](Cc2ccccc2)NC1=S	-	HIV-2	MT-4	RT activity	inhibition	100 µg/mL	-	98%
CCOP(=O)(CCCn1cc(-n2ccc(=O)[nH]c2=O)nn1)OCC	ROD	HIV-2	CEM	-	inhibition	100 µM	-	0%
O=C(NCCc1ccccc1)Nc1nc2ccccc2s1	-	HIV-2	MT-4	RT activity	inhibition	10 µg/mL	-	84%
CCOP(=O)(CC(O)n1cc(-n2ccc(=O)[nH]c2=O)nn1)OCC	ROD	HIV-2	-	-	inhibition	100 µM	-	0%
CC(=O)N1C(=O)[C@@H](Cc2ccccc2)NC1=S	-	HIV-2	MT-4	cytopathic effect / XTT	inhibition	100 µg/mL	-	100%
CC(=O)NC1C=CN(c2cn(C(O)P(=O)(O)O)nn2)C(=O)N1	ROD	HIV-2	CEM	-	inhibition	100 µM	-	0%
N#Cc1csc(NC(=O)NCCc2ccccc2)n1	-	HIV-2	MT-4	RT activity	inhibition	1 µg/mL	-	91%
Cc1cc(C#N)cc(C(=O)c2cc(Cl)ccc2OCC(=O)Nc2ccc(S(N)(=O)=O)nc2C)c1	HXB2	HIV-1	HeLa + HELA CD4+	β-galactosidase	fold resistance	-	RT-V106I	~1
O=C1[C@@H](Cc2ccccc2)NC(=S)N1Cc1ccccc1	-	HIV-2	MT-4	cytopathic effect / XTT	inhibition	0.1 µg/mL	-	0%
Cc1cc(S(N)(=O)=O)ccc1NC(=O)COc1ccc(Cl)cc1C(=O)c1cc(Cl)cc(C#N)c1	HXB2	HIV-1	HeLa + HELA CD4+	β-galactosidase	fold resistance	-	RT-L100I	~1

The first 2 rows once more:

| structure | strain or isolate | species | cells | read by | read-out | tested at | changes | result |
|---|---|---|---|---|---|---|---|---|
| Cc1cc2[nH]cnc2cc1NC(=O)COc1ccc(Cl)cc1C(=O)c1cc(F)cc(C(F)(F)F)c1 | HXB2 | HIV-1 | HeLa + HELA CD4+ | β-galactosidase | fold resistance | - | RT-P236L | ~1 |
| O=C(NCCc1ccccc1)Nc1ccccn1 | - | HIV-1 | MT-4 | cytopathic effect / XTT | inhibition | 1 µg/mL | - | 0% |